Here are results for two compounds from patent US11884956B2, “Methods for detecting mycobacteria with solvatochromic dye conjugates” (priority 2016, dated 2024).

This series concerns Mtb. Kind of series: Limit of detection of Mtb by microscopy. Type of series: cell-based, Mycobacterium tuberculosis.

In the case of `CN(C)c1ccc(C(=N)c2ccc(N(C)C)cc2)cc1.Cl` [Auramine O, reference compound], the limit of detection (liquid culture assay) is ~10^4 CFU/mL. Consider `CN(C)c1ccc2c3c(cccc13)C(=O)N(C[C@H]1O[C@H](O[C@H]3O[C@H](CO)[C@@H](O)[C@H](O)[C@H]3O)[C@H](O)[C@@H](O)[C@@H]1O)C2=O` [DMN-Tre, 4-N,N-dimethylamino-1,8-naphthalimide-conjugated trehalose], for which the limit of detection is, setting by setting: (liquid culture assay) ~10^4 CFU/mL; (specimen concentrated and collected onto a filter membrane, DMN-Tre added directly onto the membrane) under 50 CFU/mL.
